Measured values from several laboratories, pooled; numbers as filed in NIAID ChemDB.

All rows: cytotoxicity tests; measure: CC50

CCn: concentration that lowers growth or viability of the cells by n%.

smiles,read by,cells,value
C=C(C)[C@@H]1CC[C@]2(C(=O)N[C@@H](Cc3ccccc3)[C@H](O)CN(CC(C)C)S(=O)(=O)c3ccc([N+](=O)[O-])cc3)CC[C@]3(C)[C@H](CC[C@@H]4[C@@]5(C)CC[C@H](O)C(C)(C)[C@@H]5CC[C@]43C)[C@@H]12,absorbance,HUVEC,>100 µM
Cc1ccc2nc(Nc3cc(Cl)cc(Br)c3)sc2c1,MTS,Ava5,168 µM
CCc1cn([C@H]2C[C@H](O)[C@@H](CO)O2)c(=S)[nH]c1=O,-,RPMI8226,>288.6 µM
CCCCn1c(=O)c2cc3c(cc2c2cc(C(O)(C(F)(F)F)C(F)(F)F)c4c(c21)OCO4)OCO3,tetrazolium,Replicon cells,15.9 µM
Cc1cc2c(cc1CNC(=O)C1=CN3C[C@H]4OC[C@H](C)N4C(=O)C3C(=O)C1=O)OCCO2,XTT,CEM-SS,>0.01 µM
Nc1nc2c(ncn2C[C@@H]2CC[C@@H](P(=O)(O)O)O2)c(=O)[nH]1,-,HS68,<10 µg/mL
CCCCn1c(=O)c2cc(OC)ccc2c2c(OC)c(C(O)(C(F)(F)F)C(F)(F)F)cc(OC)c21,tetrazolium,Replicon cells,>100 µM
Clc1ccc2c(NCCNCc3ccncc3)ccnc2c1,MTT,HepG2 cells,153 µM
CSc1nsc(-c2ccc(OC(C)(C)C)cc2)c1C#N,-,L929,>50 µM
CCCCCCCCCCCCCCCCOC1O[C@@H](CO)[C@H](O)[C@H](O)[C@@H]1O,-,TZM-b1,43.51 µM
Nc1nc2c(ncn2C=C2CC2CO)c(=O)[nH]1,neutral red,MEF,>429 µM
COc1ccc2c(c1)C[C@@H]1C[C@]1(C(=O)N1C[C@@H]3CC[C@@H](CN(CCCC4CCCCC4)C3)C1)Cn1c-2c(C2CCCCC2)c2ccc(C(=O)NS(=O)(=O)N(C)C)cc21,resazurin / fluorescence,HCV replicon cells,5 µM
O=c1[nH]c(=O)n([C@H]2C[C@H](O)[C@@H](CO)O2)cc1-c1ccc(Br)s1,cell count,P3HR-1,262 µM
C=CCCC1=NCC(OC(C)=O)c2cc(OC)c(OC)cc21,-,BJ,<7.5 µM
Cc1ccc(-c2ccccc2)n1NC(=O)c1ccncc1,MTT,Vero cell,>100 µg/mL
COC(=O)[C@H](C)NP(=O)(OC[C@H]1C/C1=C/n1cnc2c(=O)[nH]c(N)nc21)Oc1ccccc1,neutral red,MEF,>206 µM
O=C(/C=C/c1cc(-c2ccccc2)cnc1Cl)c1ccccc1,MTT,RAW 264.7,102 µM
Cc1ccc2nc(Nc3cc(O)cc([N+](=O)[O-])c3)sc2c1,MTS,Ava5,52 µM
COc1ccc(-c2snc(SC)c2C#N)cc1,-,L929,10 µM
COc1cccc(Nc2nc3ccc(C)cc3s2)c1,MTS,Ava5,321 µM
CCCCn1c(=O)c2ccccc2c2cc(C(O)(C(F)(F)F)C(F)(F)F)cc(C)c21,tetrazolium,Replicon cells,31.9 µM
COC(=O)[C@H](C)NP(=O)(OC[C@H]1C/C1=C/n1cnc2c(OC)nc(N)nc21)Oc1ccccc1,neutral red,MEF,126 µM
Clc1ccc2c(NCCCNCc3ccc(Br)cc3)ccnc2c1,MTT,HepG2 cells,4.946 µM
COS(=O)(=O)[O-].Cn1c(-c2c[nH]c3ccccc23)c[n+](C)c1-c1cn(C)c2cc(Br)ccc12,-,P-388,0.34 µg/mL
Clc1ccc2c(NCc3nc(-c4ccccc4)c(CN4CCCC4)[nH]3)ccnc2c1,MTT,HMEC-1,8.661 µM
CCOC(=O)/C(=C\c1cc(-c2ccccc2)cnc1Cl)C(=O)c1ccccc1,MTT,RAW 264.7,68 µM
Nc1ccn([C@@H]2CS[C@H](CO)O2)c(=O)n1,-,OM-10.1,>20 µM
CCOC(=O)/C=C/c1cc(CC)cnc1Cl,MTT,RAW 264.7,7 µM
OC[C@H]1C[C@@H](n2cnc3c(F)ncnc32)CO1,-,ATH8,>100 µM
CCCCn1c(=O)c2ccccc2c2cc(C(O)(C(F)(F)F)C(F)(F)F)cc(OC)c21,tetrazolium,Replicon cells,22.3 µM
CCn1nc(-c2cc(C)on2)c(N=O)c1C,-,MIT-4,9.5 µM
CC(C)CN(C[C@@H](O)[C@H](Cc1ccccc1)NC(=O)[C@]12CCC(C)(C)C[C@H]1C1=CC[C@@H]3[C@@]4(C)CC[C@@H](O)C(C)(C)[C@@H]4CC[C@@]3(C)[C@]1(C)CC2)S(=O)(=O)c1ccc([N+](=O)[O-])cc1,absorbance,HUVEC,>100 µM
Cn1c(CNc2ccnc3cc(Cl)ccc23)nc(-c2ccccc2)c1CN1CCCC1,MTT,HMEC-1,28.6 µM
CCCc1cn([C@H]2C[C@H](O)[C@@H](CO)O2)c(=S)nc1N,-,RPMI8226,>277.4 µM
Cc1cc(-c2c(N=O)c(C)nn2-c2ccccc2)no1,-,MIT-4,14 µM
Nc1nc(Cl)c2ncn([C@H]3CO[C@@H](CO)C3)c2n1,-,ATH8,>100 µM
CCn1nc(C)c([N+](=O)[O-])c1-c1cc(C)on1,-,MIT-4,>200 µM
COC(=O)c1ccc(/C=C/C(=O)c2ccccc2)c(Cl)n1,MTT,RAW 264.7,35 µM
Cc1cc(-c2c(N=O)c(C)nn2CCO)no1,-,MIT-4,13.5 µM
CCCCCC1(CCCCC)Cc2c(cc(C(C)(C)C)c(O)c2C(C)(C)C)O1,-,FLR3-1 cells,1000 µM
C=Cc1cn([C@@H]2O[C@H](CO)[C@@H](O)[C@@H]2O)c(=S)[nH]c1=O,-,RPMI8226,>266.3 µM
COc1ccc2c(c1)C[C@@H]1C[C@]1(C(=O)N1C[C@H]3CC[C@@H](C1)CN(S(=O)(=O)C(C)C)C3)Cn1c-2c(C2CCCCC2)c2ccc(C(=O)NS(=O)(=O)C(C)C)cc21,resazurin / fluorescence,HCV replicon cells,10 µM
CCCCCCCCCCCCCCCC(=O)O[C@@H]1[C@H](O)[C@@H](O[C@@H]2O[C@H](CO)[C@H](O)[C@H](O)[C@H]2O)O[C@H](CO)[C@H]1O,-,TZM-b1,75.99 µM
Nc1nc2c(ncn2OCCCCP(=O)(O)O)c(=O)[nH]1,MTT,PBL,>100 µM
CSc1c(C#N)c2c(N)ncnc2n1COC(CO)CO,-,ALEX,~800 µM
CCOC(=O)CC(=O)NCC(OCC)(OCC)c1ccc2c(c1)OCO2,-,RAJI,<7.5 µM
CCOC(=O)c1cc(O)c(O)c(O)c1,MTS,Col-2,>200 µM
CCc1cn([C@H]2C[C@H](O)[C@@H](CO)O2)c(=O)[nH]c1=O,cell count,OMK,>700 µM
O=C(NCc1ccccc1)c1ccc(-c2ccc3c(c2)OCO3)cc1,-,BJ,>20 µM
Clc1ccc(-c2nc(CNc3ccnc4cc(Cl)ccc34)[nH]c2CN2CCCC2)cc1,MTT,HMEC-1,2.056 µM
Nc1c2c(nc(=O)n1-c1ccccc1)SC(c1ccncc1)C1=C2/C(=C/c2ccncc2)CCC1,MTT,MGC-803,14.9 µM
CC(C)CN(C[C@@H](O)[C@H](Cc1ccccc1)NC(=O)[C@]12CC[C@@H](C)[C@H](C)[C@H]1C1=CC[C@@H]3[C@@]4(C)CCC(=O)C(C)(C)[C@@H]4CC[C@@]3(C)[C@]1(C)CC2)S(=O)(=O)c1ccc([N+](=O)[O-])cc1,absorbance,HUVEC,>100 µM
Cc1cn(C2OC(CO)C(O)C2(F)F)c(=O)[nH]c1=O,MTS,CrFK,>100 µM
CCCCCCCCCCCCCCCC(=O)OC[C@H]1O[C@H](OC)[C@@H](O)[C@@H](O)[C@@H]1O,-,TZM-b1,>100 µM
CCn1cc(C(=O)O)c(=O)c2cc(F)c(N3CCN(c4ccccc4OC)CC3)c(OC(F)F)c21,-,OM-10.1,9.3 µM
Nc1ncnc2c1ncn2C=C1CC1CO,neutral red,MEF,>460 µM
CCOC(=O)CCCCCOc1cccc(CN(C(=O)c2ccc(-c3cccc(Br)c3)cc2)C(C)C)c1,-,BJ,>20 µM
CCc1c(C)[nH]c(=O)c(N(C)C)c1Cc1cc(C)cc(C)c1,-,P4,>100 µM
C=C(C)[C@@H]1CC[C@]2(C(=O)N[C@@H](Cc3ccccc3)[C@H](O)CN(CC(C)C)S(=O)(=O)c3ccc(N)cc3)CC[C@]3(C)[C@H](CC[C@@H]4[C@@]5(C)CC[C@H](O)C(C)(C)[C@@H]5CC[C@]43C)[C@@H]12,absorbance,HUVEC,>100 µM
Nc1ncc2ncn([C@H]3CO[C@@H](CO)C3)c2n1,-,ATH8,>100 µM
Clc1ccc2c(NCCCNCc3ccncc3)ccnc2c1,MTT,HepG2 cells,35.9 µM
Clc1ccc2c(NCc3nc(-c4ccccc4)c(CN4CCCC4)s3)ccnc2c1,MTT,HMEC-1,30.4 µM
Nc1nc(=S)n([C@@H]2O[C@H](CO)[C@@H](O)[C@@H]2O)cc1CO,-,RPMI8226,>253.5 µM
C[C@H](NP(=O)(OC[C@H]1O[C@@H](n2cc(Br)c(=O)[nH]c2=O)C(F)(F)[C@@H]1O)Oc1ccccc1)C(=O)OCc1ccccc1,MTS,CrFK,>100 µM
O=[N+]([O-])c1ccc(N=NNc2ccc([N+](=O)[O-])cc2Br)c(Br)c1,neutral red,J774A.1,52.46 µM
O=c1[nH]c(=S)[nH]c2c3c([nH]c12)SC(c1ccncc1)C1=C3/C(=C/c2ccncc2)CCC1,MTT,MGC-803,14.5 µM
CSc1nsc(-c2ccc(OCc3ccccc3)cc2)c1C#N,-,HELA-OHIO,>50 µM
CCn1nc(-c2cc(C)on2)cc1C,-,MIT-4,>200 µM
Clc1ccc2c(NCCCCNc3nccc(Cl)n3)ccnc2c1,MTS / tetrazolium / absorbance,CRFK cells,>100 µM
COc1ccc(Nc2nc3ccc(C)cc3s2)c(OC)c1,MTS,Ava5,28 µM
Clc1ccc2c(NCCCCCCCCNc3ccnc(Cl)n3)ccnc2c1,MTS / tetrazolium / absorbance,CRFK cells,8 µM
C[C@@H]1CO[C@@]2(C[C@@H]1OC(=O)c1ccc(O)cc1)O[C@@H]1C[C@@H](C(=O)O[C@@H]3C[C@H](O)[C@@H](O)[C@H](O)[C@H]3OC3O[C@H](CO)[C@@H](O)[C@H](O)[C@H]3O)C[C@H](O)[C@@H]1[C@H]2O,MTT,HepG2 2.2.15,2.3 µM
OC(Cn1cncn1)(Cn1cncn1)c1ccc(F)cc1F,-,MIT-4,>200 µM
COc1nc(N)nc2c1ncn2C=C1CC1CO,neutral red,MEF,260 µM
Cc1cc(-c2cc(C)on2)n(CCO)n1,-,MIT-4,>200 µM
C[C@@H]1CO[C@@]2(C[C@@H]1OC(=O)c1ccccc1)O[C@@H]1C[C@@H](C(=O)O[C@@H]3C[C@H](O)[C@@H](O)[C@H](O)[C@H]3OC3O[C@H](CO)[C@@H](O)[C@H](O)[C@H]3O)C[C@H](O)[C@]1(O)[C@H]2O,MTT,HepG2 2.2.15,1.5 µM
CCN(CC)Cc1[nH]c(CNc2ccnc3cc(Cl)ccc23)nc1-c1ccccc1,MTT,HMEC-1,9.144 µM
CO[C@@]12C[C@@H](C(=O)O[C@@H]3C[C@H](O)[C@@H](O)[C@H](O)[C@H]3OC3O[C@H](CO)[C@@H](O)[C@H](O)[C@H]3O)C[C@H](O)[C@]1(O)[C@@H](O)[C@]1(C[C@H](OC(=O)c3ccc(O)cc3)[C@H](C)CO1)O2,MTT,HepG2 2.2.15,165.5 µM
CCc1cn([C@@H]2O[C@H](CO)[C@@H](O)[C@@H]2O)c(=S)nc1N,-,RPMI8226,>264.9 µM
O=C(N/C(C(=O)N1CCCCC1)=C(/Cl)c1ccccc1)c1ccccc1,-,HepAD38,>81 µM
C=Cc1cn([C@H]2C[C@H](O)[C@@H](CO)O2)c(=S)[nH]c1=O,-,RPMI8226,>290.3 µM
COC(=O)[C@H](C)NP(=O)(OCC1C/C1=C/n1cnc2c(NC3CC3)nc(N)nc21)Oc1ccccc1,neutral red,MEF,101 µM
Nc1c(C(=O)c2ccccc2)[nH]c2c1C1=C(CCC/C1=C\c1ccncc1)C(c1ccncc1)S2,MTT,KB,>50 µM
CCCCn1c(=O)c2ccccc2c2cc(C(O)(C(F)(F)F)C(F)(F)F)c(OC)cc21,tetrazolium,Replicon cells,>40 µM
C=Cc1cn([C@@H]2O[C@H](CO)[C@@H](O)[C@@H]2O)c(=S)nc1N,-,RPMI8226,>266.3 µM

For reference, 7 entries again:

smiles	read by	cells	value
CSc1nsc(-c2ccc(OCc3ccccc3)cc2)c1C#N	-	HELA-OHIO	>50 µM
Nc1nc(=S)n([C@@H]2O[C@H](CO)[C@@H](O)[C@@H]2O)cc1CO	-	RPMI8226	>253.5 µM
C[C@H](NP(=O)(OC[C@H]1O[C@@H](n2cc(Br)c(=O)[nH]c2=O)C(F)(F)[C@@H]1O)Oc1ccccc1)C(=O)OCc1ccccc1	MTS	CrFK	>100 µM
Cc1ccc(-c2ccccc2)n1NC(=O)c1ccncc1	MTT	Vero cell	>100 µg/mL
Cc1ccc2nc(Nc3cc(Cl)cc(Br)c3)sc2c1	MTS	Ava5	168 µM
CCn1nc(-c2cc(C)on2)c(N=O)c1C	-	MIT-4	9.5 µM
CCc1cn([C@H]2C[C@H](O)[C@@H](CO)O2)c(=O)[nH]c1=O	cell count	OMK	>700 µM

An empty or dashed field is not shown. Lines come from different laboratories, so protocols vary.